{
  "sequences": {"note": "Sequences of proteins named here, by UniProt entry; tags and fusion partners are left off.", "UniProt P08631, whole entry, looked up": "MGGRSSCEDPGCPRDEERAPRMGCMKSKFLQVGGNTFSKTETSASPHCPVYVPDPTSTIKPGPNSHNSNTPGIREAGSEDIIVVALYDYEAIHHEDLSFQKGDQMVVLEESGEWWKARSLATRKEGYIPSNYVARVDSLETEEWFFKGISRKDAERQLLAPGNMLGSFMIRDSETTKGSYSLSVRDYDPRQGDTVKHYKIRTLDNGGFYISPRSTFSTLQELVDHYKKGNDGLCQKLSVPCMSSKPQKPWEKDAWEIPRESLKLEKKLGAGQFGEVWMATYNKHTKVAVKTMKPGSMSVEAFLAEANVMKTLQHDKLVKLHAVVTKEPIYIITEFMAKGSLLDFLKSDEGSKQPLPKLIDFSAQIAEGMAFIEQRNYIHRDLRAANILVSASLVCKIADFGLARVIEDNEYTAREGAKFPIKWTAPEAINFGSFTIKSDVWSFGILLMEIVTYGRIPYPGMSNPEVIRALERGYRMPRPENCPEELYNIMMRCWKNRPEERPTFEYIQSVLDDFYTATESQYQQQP"},
  "source": "PubChem BioAssay AID463187",
  "about": "(University of Pittsburgh Molecular Library Screening Center, 2010)",
  "note": "The list shows a part of the results, in another mix than the full data. Activity calls are given as the source filed them.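 Rule for the calls: active = Hck-Nef kinase inhibition above about 50% (limit read from the data); inactive = inhibition below that limit.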",
  "data": [
    {"biological_target": "Tyrosine-protein kinase HCK (Homo sapiens) (UniProt P08631)", "test": "inhibitors of Nef-activated human Hck kinase, primary screen, biochemical, Z-Lyte FRET, 384-well, Hck-YEEI (AID 463187);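 note: 0% = DMSO with Hck plus Nef and 100% = Hck alone without Nef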", "conditions": "Recombinant Hck-YEEI plus Nef, Z-Lyte FRET kinase assay; at 20 µM; hits give high values", "values": [
      {"smiles": "COc1ccc(C(=O)NCC2(N3CCOCC3)CCCCC2)cc1OC", "inhibition": "inactive: 19.5%"},
      {"smiles": "N/C(=N\\O)c1c(N)no[n+]1[O-]", "inhibition": "inactive: -0.0637%"},
      {"smiles": "O=C(OC1CN2CCC1CC2)C1c2ccccc2C=Cc2ccccc21", "note": "(centres undefined)", "inhibition": "inactive: 2.07%"},
      {"smiles": "N#Cc1ccc(C(=O)NCC2(N3CCCCC3)CCCCC2)cc1", "inhibition": "inactive: 18.2%"},
      {"smiles": "c1ccc(CN2CCC(Nc3ccccc3)CC2)cc1", "inhibition": "inactive: -10.6%"},
      {"smiles": "CCN1CCC(Nc2cccc(F)c2)CC1", "inhibition": "inactive: -6.61%"},
      {"smiles": "CN(C)c1ccc(C(=O)NCC2(N3CCCCC3)CCCCC2)cc1", "inhibition": "inactive: 21.5%"},
      {"smiles": "CCOc1ncccc1C(=O)NCC1(N2CCOCC2)CCCCC1", "inhibition": "inactive: 0.577%"},
      {"smiles": "CC(C)(C)OC(=O)N1CCC(Nc2ccccc2)CC1", "inhibition": "inactive: 13.6%"},
      {"smiles": "COc1cc(OC)cc(C(=O)NCC2(N3CCOCC3)CCCCC2)c1", "inhibition": "inactive: -8.89%"},
      {"smiles": "CCC(CO)(C(=O)OC1CN2CCC1CC2)c1ccccc1", "note": "(centres undefined)", "inhibition": "inactive: 0.42%"},
      {"smiles": "CCCOc1ccc(C)cc1CN(CCCl)CCCl", "inhibition": "inactive: 2.9%"},
      {"smiles": "COc1ccc(C(=O)NCC2(N3CCCCC3)CCCCC2)c(OC)c1OC", "inhibition": "inactive: -11.5%"},
      {"smiles": "O=C(NCC1(N2CCOCC2)CCCCC1)c1cc2ccccc2o1", "inhibition": "inactive: -19.3%"},
      {"smiles": "N#CC1(Nc2ccccc2)CCN(Cc2ccccc2)CC1", "inhibition": "inactive: 10.1%"},
      {"smiles": "O=C(OC1CN2CCC1CC2)C1c2ccccc2Oc2ccccc21", "note": "(centres undefined)", "inhibition": "inactive: -0.337%"},
      {"smiles": "CCOC(=O)N1CCC(Nc2ccc(OC)cc2)CC1", "inhibition": "inactive: 27%"},
      {"smiles": "CCOc1ccc(C)cc1CN(CCCl)CCCl", "inhibition": "inactive: 5.5%"},
      {"smiles": "COc1ccc(NC2CCN(CCc3ccccc3)CC2)c(OC)c1", "inhibition": "inactive: 0.106%"},
      {"smiles": "Cc1ccc(OCC(C)C)c(CN(CCCl)CCCl)c1", "inhibition": "inactive: -10.3%"},
      {"smiles": "N#CC1(Nc2ccccc2)CCN(CCc2ccccc2)CC1", "inhibition": "inactive: 1.2%"},
      {"smiles": "O=C(NCC1(N2CCCCC2)CCCCC1)c1cccc([N+](=O)[O-])c1", "inhibition": "inactive: 9.6%"},
      {"smiles": "O=C(NCC1(N2CCOCC2)CCCCC1)c1cc(=O)[nH]c2ccccc12", "inhibition": "inactive: -10.2%"},
      {"smiles": "COc1ccc(NC2CCN(C(=O)OC(C)(C)C)CC2)cc1", "inhibition": "inactive: 31.5%"},
      {"smiles": "CN1CCN(CCOC(=O)C(O)(c2ccccc2)c2ccccc2)CC1", "inhibition": "inactive: 0.967%"},
      {"smiles": "CC(C)c1ccc(NC2CCN(C(=O)OC(C)(C)C)CC2)cc1", "inhibition": "inactive: 20.4%"},
      {"smiles": "COc1ccc(CN(CCCl)CCCl)cc1Cl", "inhibition": "inactive: 13.1%"},
      {"smiles": "CN(C)c1cccc(C(=O)NCC2(N3CCCCC3)CCCCC2)c1", "inhibition": "inactive: 17.7%"},
      {"smiles": "CN1CCC(Nc2cccc(F)c2)CC1", "inhibition": "inactive: -0.288%"}
    ]}
  ]
}
